Consider 1 substance from PMC8286831, “Identifying SARS-CoV-2 antiviral compounds by screening for small molecule inhibitors of nsp13 helicase” (Biochemical Journal, 2021).

Where two headings read alike, the source gives them in different places.

For this assay, the target named is SARS-CoV-2 nsp13 helicase (Severe acute respiratory syndrome coronavirus 2, UniProt P0DTD1). The format is biochemical.

For orientation: IC50 means the concentration needed to halve the response being measured. Turning to PDK1/Akt/Flt Dual Pathway Inhibitor, the half-maximal inhibitory concentration (IC50) runs as follows: (read-out: IC50 + 0.02% Tween-20) 900 nM; (read-out: IC50 No detergent) 1100 nM.
